Assay results published in US20080261241A1, “Targeted ubiquitination of proteins and screening methods using a new class of ubiquitin ligase proteins” (INSTITUT PASTEUR, priority 2007, published 2008).

Protein sequences, listed by entry. Tags and fused reporters are not part of them.
UniProt P62837, whole entry, looked up: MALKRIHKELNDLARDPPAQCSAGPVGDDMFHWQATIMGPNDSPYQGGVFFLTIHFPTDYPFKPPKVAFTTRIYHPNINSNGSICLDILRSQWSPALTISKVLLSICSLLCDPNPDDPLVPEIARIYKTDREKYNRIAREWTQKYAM

Molecular target: His-tagged UbcH5B (UniProt P62837)

GST-IpaH9.8-C337A
removal of ubiquitin from ubiquitinated UbcH5B, immunoblot with streptavidin-peroxidase: This activity was not observed when GST-IpaH9.8-C337A was added to the reaction mixture
